# Test results reported in patent US20250057837A1, “Methods for Treating HCV” (priority 2015, published 2025).
# Tested on: HCV replicon Genotype 3a (GT3a NS3 protease)
# Assay: HCV Subgenomic Stable Replicon Cell Culture Assay, Genotype 3a
# Type: cell-based, hepatitis C virus
# Details: concentrations ≥100-fold over its EC50 value; replicon containing GT3a NS3 protease
smiles,measurement,value
CC(C)(C)[C@@H]1NC(=O)O[C@@H]2CCC[C@H]2OC/C=C/C(F)(F)c2nc3ccccc3nc2O[C@@H]2C[C@@H](C(=O)N[C@]3(C(=O)NS(=O)(=O)C4(C)CC4)C[C@H]3C(F)F)N(C2)C1=O [Compound 1],resistant colonies selected,very few colonies
